PubChem BioAssay AID504761 – Drosophila RNAi Screening Center – 2011
In all, the deposit lists about 22,000 reagents; below is an unselected part of those with a known target gene and a result. Of all reagents, 116 (0.52%) were called active. 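Calls depend on retest data that are not deposited; infection was ranked per plate without normalising between plates; the unit of the infection score is not given.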 The raw values are shown without normalisation. Entries without a mark were called inactive. A plus sign joins genes that one reagent is predicted to hit. Reagent sequences are not shown. Not given: the amount of reagent, the time to read-out.

Test: 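Fly genes whose silencing reduces dengue virus type 2 infection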 (primary screen)
Cells: D.Mel-2 cells from Drosophila
Reagents: long dsRNA against Drosophila genes
Conditions: infection with dengue virus type 2; dose and infection time not stated
Measured: 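Cells stained for dengue envelope protein and imaged; percent of infected cells per well on duplicate plates, ranked by infection, with stained nuclei counted for cell number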
Reading the numbers: infection score: higher = more virus-infected cells; cell count: higher = more cells in the well
Call rule: 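Low infection ranks in the two replicates (chance level up to 0.065) followed by a retest with a 1.5-fold or larger significant decrease, p below 0.05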
Meaning of the calls: active = confirmed: knock-down lowers infection; inactive = not picked or not confirmed

CG30159 (GeneID 35611) [DRSC04981] gave infection score, replicate 1 = 14.8; infection score, replicate 2 = 21.2; cell count, replicate 1 = 6890; cell count, replicate 2 = 1826.
Knock-down of CG30159 (GeneID 35611) [DRSC26683] came out at: infection score, replicate 1 = 0.88; infection score, replicate 2 = 1.19; cell count, replicate 1 = 6217; cell count, replicate 2 = 6408.
Depletion of CG32214 (GeneID 317919) [DRSC09613] gave: infection score, replicate 1 = 7.81; infection score, replicate 2 = 2.73; cell count, replicate 1 = 6122; cell count, replicate 2 = 5979.
Against CG12278 (GeneID 42486) [DRSC14494] the deposit lists infection score, replicate 1 = 5.39; cell count, replicate 1 = 6294; cell count, replicate 2 = 420.
CG9269 (GeneID 41663) [DRSC16465] showed infection score, replicate 1 = 1.05; infection score, replicate 2 = 17.1; cell count, replicate 1 = 5921; cell count, replicate 2 = 4338.
Against stc (GeneID 34888) [DRSC03620], the values are infection score, replicate 1 = 26.7; infection score, replicate 2 = 8.5; cell count, replicate 1 = 5736; cell count, replicate 2 = 6320.
Depletion of yip7 (GeneID 38680) [DRSC11410] came out at: infection score, replicate 1 = 2.34; infection score, replicate 2 = 4.83; cell count, replicate 1 = 6397; cell count, replicate 2 = 5793.
With knock-down of yip7 (GeneID 38680) [DRSC25234] the results were infection score, replicate 1 = 0.98; infection score, replicate 2 = 3.98; cell count, replicate 1 = 6012; cell count, replicate 2 = 6082.
Depletion of Lsp1alpha (GeneID 32199) [DRSC20258] came out at: infection score, replicate 1 = 0.53; infection score, replicate 2 = 1.54; cell count, replicate 1 = 6426; cell count, replicate 2 = 7088.
Depletion of Lsp1alpha (GeneID 32199) [DRSC25329] came out at: infection score, replicate 1 = 9.33; infection score, replicate 2 = 1.34; cell count, replicate 1 = 6042; cell count, replicate 2 = 6553.
For Cpr64Aa (GeneID 38508) [DRSC08460], the values are infection score, replicate 1 = 4.94; infection score, replicate 2 = 1.32; cell count, replicate 1 = 5607; cell count, replicate 2 = 5587.
After knock-down of Cpr64Aa (GeneID 38508) [DRSC23801], the record shows infection score, replicate 1 = 2.27; infection score, replicate 2 = 1.51; cell count, replicate 1 = 6091; cell count, replicate 2 = 6015.
spn-E (GeneID 41919) [DRSC17064] scored infection score, replicate 1 = 4.68; infection score, replicate 2 = 8.38; cell count, replicate 1 = 6427; cell count, replicate 2 = 6417.
CG7747 (GeneID 36820) [DRSC07038] scored infection score, replicate 1 = 7.84; infection score, replicate 2 = 9.25; cell count, replicate 1 = 5891; cell count, replicate 2 = 5567.
Against CG7747 (GeneID 36820) [DRSC26745] the deposit lists infection score, replicate 1 = 20.9; infection score, replicate 2 = 16.2; cell count, replicate 1 = 6175; cell count, replicate 2 = 5811.
After knock-down of 14-3-3epsilon (GeneID 42186) [DRSC16370], the screen gave infection score, replicate 1 = 3.03; infection score, replicate 2 = 12.2; cell count, replicate 1 = 6312; cell count, replicate 2 = 6321.
With knock-down of CG17742 (retired record) (GeneID 38787) [DRSC25787] the results were infection score, replicate 1 = 7.79; infection score, replicate 2 = 6.74; cell count, replicate 1 = 5723; cell count, replicate 2 = 6546.
Depletion of Cpr76Ba (GeneID 40120) [DRSC11060] resulted in: infection score, replicate 1 = 1.12; infection score, replicate 2 = 3.27; cell count, replicate 1 = 6187; cell count, replicate 2 = 6692.
Cpr76Ba (GeneID 40120) [DRSC27858] scored infection score, replicate 2 = 3.09; cell count, replicate 1 = 488; cell count, replicate 2 = 6345.
With knock-down of Dif (GeneID 35045) [DRSC03316] the results were infection score, replicate 1 = 12.1; infection score, replicate 2 = 7.74; cell count, replicate 1 = 5401; cell count, replicate 2 = 4691.
CG15147 (GeneID 35069) [DRSC02447] scored infection score, replicate 1 = 2.6; infection score, replicate 2 = 0.94; cell count, replicate 1 = 6341; cell count, replicate 2 = 6794.
Depletion of CG15147 (GeneID 35069) [DRSC02448] gave: infection score, replicate 1 = 5.23; infection score, replicate 2 = 5.5; cell count, replicate 1 = 6215; cell count, replicate 2 = 6657.
Knock-down of CG15147 (GeneID 35069) [DRSC27255] came out at: infection score, replicate 1 = 2.87; infection score, replicate 2 = 14; cell count, replicate 1 = 6758; cell count, replicate 2 = 6196.
Depletion of CG14629 (GeneID 31055) [DRSC18476] came out at: infection score, replicate 1 = 2; infection score, replicate 2 = 1.19; cell count, replicate 1 = 6098; cell count, replicate 2 = 6701.
For CG14629 (GeneID 31055) [DRSC23909], the entry reads infection score, replicate 1 = 10.1; infection score, replicate 2 = 8.51; cell count, replicate 1 = 6086; cell count, replicate 2 = 6086.
Depletion of asRNA:Eig63F-2 + Eip63F-1 [DRSC21446] came out at: infection score, replicate 1 = 1.05; infection score, replicate 2 = 5.82; cell count, replicate 1 = 6194; cell count, replicate 2 = 6412.
Sodh1 (GeneID 40836) [DRSC12605] gave infection score, replicate 1 = 7.32; infection score, replicate 2 = 5.48; cell count, replicate 1 = 5930; cell count, replicate 2 = 6336.
With knock-down of Sodh1 (GeneID 40836) [DRSC26280], the record shows infection score, replicate 1 = 9.12; infection score, replicate 2 = 2.37; cell count, replicate 1 = 3355; cell count, replicate 2 = 5610.

Just “infection score, replicate 2”, for 5 of the entries above:
CG15147 (GeneID 35069) [DRSC27255] = 14
CG14629 (GeneID 31055) [DRSC18476] = 1.19
CG14629 (GeneID 31055) [DRSC23909] = 8.51
asRNA:Eig63F-2 + Eip63F-1 [DRSC21446] = 5.82
Sodh1 (GeneID 40836) [DRSC12605] = 5.48
